Potato spindle tuber viroid, loop 6: variant abundance in plants

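A pool of all variants was put on leaves of three Nicotiana benthamiana plants. Progeny were sequenced from the inoculated region (day 5), the margin of the inoculated leaf (day 10) and systemic leaves (day 12).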

Region: loop 6 of PSTVd (intermediate strain), upper and lower strand joined, each 5' to 3', the first 5 letters being the upper strand, closing pairs included. Wild type: UGACCGCGAG. Varied positions (N): UNNNCGNNNG.

Numbers give reads per thousand; 0 = not seen among the reads, higher = more abundant. Each site shows the three plants. "Pool" is the share in the plasmid pool used as inoculum, on the same scale. The inoculated region was read from the minus strand, the other sites from the plus strand.

UAGACGUCUG (pool 0.327) read inoculated region 0.0869 / 0.108 / 0.111; leaf margin 0.0276 / 0 / 0; systemic leaves 0 / 0 / 0. For UCGCCGUCCG (pool 0.222) the result was inoculated region 0.0695 / 0.108 / 0.111; leaf margin 0.0276 / 0 / 0; systemic leaves 0 / 0 / 0. With CGACCGGGAG (pool 0.0131) the assay gave inoculated region 0.712 / 0.593 / 0.350; leaf margin 0.0828 / 0.101 / 0.162; systemic leaves 0 / 0 / 0. For UUGGCGCUGG (pool 0.288) the result was inoculated region 0.0869 / 0.108 / 0.0922; leaf margin 0 / 0 / 0; systemic leaves 0 / 0 / 0. With UACCCGUUUG (pool 0.366) the assay gave inoculated region 0.0695 / 0.0359 / 0.0553; leaf margin 0 / 0 / 0; systemic leaves 0 / 0 / 0. With UAAACGCGUG (pool 0.183) the assay gave inoculated region 0.608 / 0.539 / 0.609; leaf margin 0.0552 / 0.0757 / 0.116; systemic leaves 0.0180 / 0.0606 / 0.0615. With UUAGCGGCAG (pool 0.118) the assay gave inoculated region 0.782 / 0.557 / 0.461; leaf margin 0.0828 / 0.126 / 0.0232; systemic leaves 0 / 0 / 0.

UUUCCGGGAG (pool 0.144) gave inoculated region 0.122 / 0.198 / 0.0738; leaf margin 0 / 0 / 0.0696; systemic leaves 0 / 0 / 0. With UCAUCGCCUG (pool 0.170) the assay gave inoculated region 0.139 / 0.108 / 0.0553; leaf margin 0.0276 / 0 / 0; systemic leaves 0 / 0 / 0. UCAACGCGCG (pool 0.144) gave inoculated region 0.608 / 0.701 / 0.479; leaf margin 0.0828 / 0.177 / 0.162; systemic leaves 0 / 0 / 0. With UCACCGAGUG (pool 0.235) the assay gave inoculated region 0.0521 / 0.126 / 0.0922; leaf margin 0.0276 / 0 / 0.0232; systemic leaves 0 / 0 / 0. With CGACCGGCCG (pool 0.0131) the assay gave inoculated region 0.0348 / 0.0359 / 0; leaf margin 0 / 0 / 0; systemic leaves 0 / 0 / 0. UUGUCGUGUG (pool 0.353) read inoculated region 0.0869 / 0.144 / 0.240; leaf margin 0.0276 / 0 / 0.0232; systemic leaves 0 / 0 / 0. For UGGACGAUGG (pool 0.301) the result was inoculated region 0.0521 / 0.0898 / 0.0553; leaf margin 0 / 0 / 0; systemic leaves 0 / 0 / 0.

With UGGUCGAUUG (pool 0.327) the assay gave inoculated region 0.139 / 0.108 / 0.148; leaf margin 0.0276 / 0 / 0; systemic leaves 0 / 0 / 0. With UCGCCGCCUG (pool 0.261) the assay gave inoculated region 0.139 / 0.108 / 0.0553; leaf margin 0 / 0 / 0; systemic leaves 0 / 0 / 0. With UAAACGAGGG (pool 0.144) the assay gave inoculated region 0.0348 / 0.126 / 0.0738; leaf margin 0 / 0 / 0.0464; systemic leaves 0 / 0 / 0. UAACCGCUCG (pool 0.261) gave inoculated region 0.712 / 0.772 / 0.535; leaf margin 0.0828 / 0.0757 / 0.0696; systemic leaves 0 / 0 / 0. For UCGCCGCCCG (pool 0.248) the result was inoculated region 0.139 / 0.0898 / 0.0922; leaf margin 0 / 0 / 0; systemic leaves 0 / 0 / 0. With UAGUCGUUUG (pool 0.248) the assay gave inoculated region 0.0348 / 0.0539 / 0.0738; leaf margin 0 / 0 / 0.0232; systemic leaves 0 / 0 / 0. With UAAUCGCCCG (pool 0.261) the assay gave inoculated region 0.0869 / 0.0539 / 0.0184; leaf margin 0 / 0 / 0.0232; systemic leaves 0 / 0 / 0.

UUGCCGCCAG (pool 0.105) read inoculated region 0.139 / 0.0359 / 0.0738; leaf margin 0 / 0 / 0; systemic leaves 0 / 0 / 0. With UCCACGCAGG (pool 0.170) the assay gave inoculated region 0.0695 / 0.0359 / 0.148; leaf margin 0 / 0 / 0; systemic leaves 0 / 0 / 0. UUUCCGCGGG (pool 0.209) gave inoculated region 0.209 / 0.108 / 0.0738; leaf margin 0 / 0 / 0.0928; systemic leaves 0 / 0 / 0.0205. With UAAUCGAUAG (pool 0.314) the assay gave inoculated region 0.156 / 0.0539 / 0.111; leaf margin 0 / 0 / 0.162; systemic leaves 0 / 0 / 0. UCGGCGGCAG (pool 0.314) read inoculated region 0.0869 / 0.0180 / 0.0553; leaf margin 0 / 0 / 0; systemic leaves 0 / 0 / 0. With UAGGCGUUAG (pool 0.405) the assay gave inoculated region 0.0869 / 0.108 / 0.0738; leaf margin 0 / 0 / 0; systemic leaves 0 / 0 / 0. UAAACGCCGG (pool 0.0784) gave inoculated region 0.104 / 0.0719 / 0.0553; leaf margin 0 / 0 / 0; systemic leaves 0 / 0 / 0.

UAUGCGCCAG (pool 0.105) read inoculated region 0.139 / 0.0719 / 0.0738; leaf margin 0 / 0 / 0; systemic leaves 0 / 0 / 0. UGUGCGCCAG (pool 0.131) gave inoculated region 0.139 / 0.0539 / 0.0553; leaf margin 0 / 0 / 0.0232; systemic leaves 0 / 0 / 0. For UCGGCGUGCG (pool 0.209) the result was inoculated region 0.139 / 0.108 / 0.0738; leaf margin 0 / 0 / 0.0464; systemic leaves 0 / 0 / 0. UUACCGUUUG (pool 0.418) gave inoculated region 0.139 / 0.0719 / 0.148; leaf margin 0.0276 / 0 / 0; systemic leaves 0 / 0 / 0. UUGUCGAGAG (pool 0.431) read inoculated region 0.156 / 0.126 / 0.0738; leaf margin 0 / 0.0504 / 0.0464; systemic leaves 0 / 0 / 0. For UUCCCGCCCG (pool 0.222) the result was inoculated region 0.104 / 0.0898 / 0.129; leaf margin 0 / 0 / 0; systemic leaves 0 / 0 / 0. UAAUCGCGUG (pool 0.196) read inoculated region 0.139 / 0.108 / 0.184; leaf margin 0.0276 / 0.0252 / 0; systemic leaves 0 / 0 / 0.

For UUCUCGCUUG (pool 0.431) the result was inoculated region 0.122 / 0.108 / 0.0738; leaf margin 0 / 0 / 0.0232; systemic leaves 0 / 0 / 0. For UUGGCGGAAG (pool 0.183) the result was inoculated region 0.0521 / 0.126 / 0.184; leaf margin 0.0276 / 0 / 0.0232; systemic leaves 0 / 0 / 0. For AGACCGCGAG (pool 0.0131) the result was inoculated region 0.0174 / 0.144 / 0.111; leaf margin 0.0552 / 1.69 / 0; systemic leaves 0.216 / 0.707 / 0.451. For UAACCGAAUG (pool 0.275) the result was inoculated region 0.0869 / 0.126 / 0.184; leaf margin 0.0276 / 0 / 0; systemic leaves 0 / 0 / 0.

Excerpt, the final 5 entries:

* UAAUCGCGUG (pool 0.196) -> inoculated region 0.139 / 0.108 / 0.184; leaf margin 0.0276 / 0.0252 / 0; systemic leaves 0 / 0 / 0
* UUCUCGCUUG (pool 0.431) -> inoculated region 0.122 / 0.108 / 0.0738; leaf margin 0 / 0 / 0.0232; systemic leaves 0 / 0 / 0
* UUGGCGGAAG (pool 0.183) -> inoculated region 0.0521 / 0.126 / 0.184; leaf margin 0.0276 / 0 / 0.0232; systemic leaves 0 / 0 / 0
* AGACCGCGAG (pool 0.0131) -> inoculated region 0.0174 / 0.144 / 0.111; leaf margin 0.0552 / 1.69 / 0; systemic leaves 0.216 / 0.707 / 0.451
* UAACCGAAUG (pool 0.275) -> inoculated region 0.0869 / 0.126 / 0.184; leaf margin 0.0276 / 0 / 0; systemic leaves 0 / 0 / 0

Samples held 36,220 to 57,551 reads, so the smallest values rest on one or two reads. Wild type was 20.7 per thousand in the pool and the most common sequence in every sample (inoculated region 195, 198, 203; leaf margin 629, 591, 734; systemic leaves 942, 870, 868). Sequences that differ at fixed positions probably stem from PCR or sequencing errors, and defective variants can be carried along by functional ones.

Values reported by Wu et al. 2024 (doi:10.1371/journal.ppat.1012142).